According to patent US20230321082A1, “USE OF TRIAZOLE ANALOGUES FOR INHIBITION OF A TRIPARTITE VOR PROTEIN COMPLEX IN MULTICELLULAR ORGANISMS” (TECHNISCHE UNIVERSITÄT DRESDEN, priority 2020, published 2023):

Tested on: SW480 cells expressing ER-RFP
Assay: Subcellular localization of fluorescent compound, confocal microscopy
Assay type: cell-based
Details: 2 μM, 1 hour, washed, then incubated

CCn1ncn(-c2ccc(Nc3ccc([N+](=O)[O-])c4nonc34)cc2)c1=O [compound 24] was tested, and the “accumulation in perinuclear zone (fluorescence intensity)” value was “progressive accumulation” and the “presence inside the NEI” value was “inside the NEI”.
